Measured values from several laboratories, pooled; numbers as filed in NIAID ChemDB.

Shared fields: whole-cell or culture tests; organism: HIV-1

An empty or dashed field is not shown.

smiles	endpoint	cells	strain	dose	method	changes	value
O=C(NCc1ccc(F)cc1)c1nc2n(c(=O)c1O)C(=O)N(Cc1ccccc1)CC2	EC95	MT-4	-	-	p24	-	<50 µM
Nc1nc(=O)n([C@H]2C=C[C@@H](CO)O2)cc1F	EC90	PBMC	XM-ABC-resistant	-	p24	RT-K65R L74V M184V Y115F	6.2 µM
COc1ccc(S(=O)(=O)N(CC(C)C)C[C@@H](O)CCN(CC2CCCC2)S(=O)(=O)C2CCS(=O)(=O)CC2)cc1	EC90	CEM	IIIB	-	p24	-	1 µM
Nc1nc(NC2CC2)c2ncn([C@H]3C=C[C@@H](CO)C3)c2n1	EC90	MT-4	NL4-3 WT	-	p24	-	2.3 µM
C[C@H]1[C@H](O)[C@@H](C)/C=C/C=C/C=C/C=C/C=C/C=C/C=C/[C@H](O[C@@H]2O[C@H](C)[C@@H](O)[C@H](N)[C@@H]2O)C[C@@H]2O[C@](O)(C[C@@H](O)C[C@@H](O)CC[C@H](O)[C@@H](O)C[C@@H](O)CC(=O)O[C@H]1C)C[C@H](O)[C@H]2C(=O)O	inhibition	PBMC	92UG037 CLADE A R5 (NSI)	3.4 µM	p24 / RT activity	-	90%
CC(C)CN(C(=O)C(=O)C(=O)C(Cc1ccccc1)NC(=O)OC1COCOC1)S(=O)(=O)c1ccccc1	EC90	CEM	IIIB	-	p24	-	1 µM
CC(C)=CCOc1cc(NC(=S)c2ccoc2C)ccc1Cl	fold resistance	CEM + CEM-SS	NL4-3	-	p24	RT-K101E	7
COc1ccccc1C(=O)Nc1ccc(Cl)c(C(=O)OC(C)C)c1	fold resistance	CEM + CEM-SS	UC040-R (RT-Y181C)	-	cytopathic effect / XTT	RT-Y181C	5.23
Cc1cc(S(N)(=O)=O)ccc1NC(=O)COc1ccc(Cl)cc1C(=O)c1cccc(C#N)c1	fold resistance	HeLa + HELA CD4+	HXB2	-	β-galactosidase	RT-K103N	~1
COc1ccnc2[nH]cc(C(=O)C(=O)N3C4CCCC3CN(C(=O)c3ccccc3)C4)c12	EC90	TZM-bl	AC10	-	luciferase	-	13 µM
O=C(COc1ccc(Cl)cc1C(=O)c1ccco1)Nc1ccc2cn[nH]c2c1	fold resistance	MT-4	Nevirapine-resistant (RT Y181C)	-	cytopathic effect / propidium iodide	RT-Y181C	~10
O=C(NCCc1ccccc1)Nc1nc2ccccc2s1	inhibition	MT-4	-	0.1 µg/mL	RT activity	-	1%
[2H]C(CCCCN)(CNCC[C@@]12CC[C@]3(C)[C@H](CC[C@@H]4[C@@]5(C)CC[C@H](OC(=O)[C@H]6C[C@@H](C(=O)O)C6(C)C)C(C)(C)[C@@H]5CC[C@]43C)C1=C(C(C)C)C(=O)C2)NC(=O)c1ccc(Cl)cc1	EC50	MT-2	92HT599	-	p24 / ELISA	-	<1 µM
Cc1ccc(CNC(=O)c2nc3n(c(=O)c2O)CCN(C2CC2)CC3N(C)C(=O)C(=O)N(C)C)cc1Cl	EC95	MT-4	-	-	p24	-	<1 µM
CC(C)=CCOc1cc(NC(=S)c2ccoc2C)ccc1Cl	fold resistance	CEM + CEM-SS	NL4-3 (RT Y188C)	-	cytopathic effect / XTT	RT-Y188C	1.67
COc1ccnc2[nH]cc(C(=O)C(=O)N3CCN(C(=O)c4ccccc4)C[C@H]3C)c12	EC99	TZM-bl	AC10	-	luciferase	-	1.4 µM
O=C(c1ccccc1)N(CCc1ccccc1)C[C@H](O)CN(CC1CCCC1)S(=O)(=O)c1cccnc1	EC90	CEM	IIIB	-	p24	-	1 µM
Cc1cc2cn[nH]c2cc1NC(=O)COc1ccc(Cl)cc1C(=O)c1cccc(C#N)c1	fold resistance	HeLa + HELA CD4+	HXB2	-	β-galactosidase	RT-V106I Y181C	~10
CC1(C)c2nc(C(=O)NCc3ccc(F)cc3)c(O)c(=O)n2CCN1CC(N)=O	EC95	MT-4	-	-	p24	-	<1 µM
Cc1cc(S(N)(=O)=O)ccc1NC(=O)COc1ccc(Cl)cc1C(=O)c1cc(F)cc(C#N)c1	fold resistance	HeLa + HELA CD4+	HXB2	-	β-galactosidase	RT-V108I Y181C	~1
Cc1ccc(C2CC2)c(-c2ccc3c(c2C)CCCO3)c1[C@H](OC(C)(C)C)C(=O)O	fold resistance	MT-4	NL4-3	-	luminescence	INSTI-resistant (IN-Q148H)	1
CC(C)C1=C2[C@H]3CC[C@@H]4[C@@]5(C)CC[C@H](OC(=O)[C@H]6C[C@@H](C(=O)O)C6(C)C)C(C)(C)[C@@H]5CC[C@@]4(C)[C@]3(C)CC[C@@]2([C@@H](O)CNCC2CC2)CC1=O	EC50	MT-2	92HT599	-	p24 / ELISA	-	<1 µM
Cc1cc2[nH]cnc2cc1NC(=O)COc1ccc(Cl)cc1C(=O)c1cc(F)cc(C(F)(F)F)c1	fold resistance	HeLa + HELA CD4+	HXB2	-	β-galactosidase	RT-P225H	~1
CC(C)=CCOc1cc(NC(=S)c2ccsc2C)ccc1Cl	fold resistance	CEM + CEM-SS	Calanolide A-resistant (RT T139I)	-	cytopathic effect / XTT	RT-T139I	3.75
CC1(C)NCCCn2c1nc(C(=O)NCc1ccc(F)cc1)c(O)c2=O	EC95	MT-4	-	-	p24	-	<1 µM
O=C1Nc2ccc(F)c(F)c2[C@@](/C=C/C2CC2)(C(F)(F)F)N1	EC90	-	-	-	-	RT-Y181C	<0.012 µM
CC(C)[C@H](NC(=O)OCc1ccccn1)C(=O)N[C@@H](Cc1ccccc1)[C@@H](O)C[C@H](Cc1ccccc1)NC(=O)OCc1cccnc1	EC95	MT-4	NL4-3	-	p24	PR-L63P V82T I84V	3 µM
Cn1ccc(CN2CCn3c(nc(C(=O)NCc4ccc(F)cc4)c(O)c3=O)C23CCOCC3)n1	EC95	MT-4	-	-	p24	-	<1 µM
O=C(NCCc1ccccc1)NCc1ccoc1	inhibition	MT-4	-	0.1 µg/mL	cytopathic effect / XTT	-	3%
Cc1ccc(C2CC2)c(-c2ccc3c(c2)CCCO3)c1[C@H](OC(C)(C)C)C(=O)O	fold resistance	MT-4	NL4-3	-	luminescence	PI-resistant ARP-4595 (M46I/L63P/V82T/I84V)	1
Cc1ccc(-c2ccc3c(c2)C=C(C(=O)Nc2ccc(C[N+](C)(C)C4CCOCC4)cc2)CCC3)cc1	inhibition	PBMC	TB9 CLADE C	1 µM	p24	-	91.4%
O=C1Nc2ccc(Cl)cc2[C@@](C#CC2CC2)(C(F)(F)F)N1	EC90	-	-	-	-	RT-Y181C	<0.012 µM
Cc1cc(OCCCS(N)(=O)=O)ccc1NC(=O)COc1ccc(Cl)cc1C(=O)c1cc(F)cc(C(F)(F)F)c1	fold resistance	HeLa + HELA CD4+	HXB2	-	β-galactosidase	RT-G190E	~1
CCc1nnc(NC(=O)NCCc2ccccc2)s1	inhibition	MT-4	-	100 µg/mL	cytopathic effect / XTT	-	17%
Cc1cc(S(N)(=O)=O)ccc1NC(=O)COc1ccc(Cl)cc1C(=O)c1cccc(C#N)n1	fold resistance	HeLa + HELA CD4+	HXB2	-	β-galactosidase	RT-K103N	~1
CC(C)C1=C2[C@H]3CC[C@@H]4[C@@]5(C)CC[C@H](OC(=O)[C@H]6C[C@@H](C(=O)O)C6(C)C)C(C)(C)[C@@H]5CC[C@@]4(C)[C@]3(C)CC[C@@]2(CCNCC(F)(CN)NC(=O)c2ccc(Cl)cc2)CC1=O	EC50	MT-2	92HT599	-	p24 / ELISA	-	<1 µM
O=C(NCCc1ccccc1)Nc1nc2ccc(F)cc2s1	inhibition	MT-4	-	1 µg/mL	RT activity	-	51%
CC(C)C1=C2[C@H]3CC[C@@H]4[C@@]5(C)CC[C@H](OC(=O)[C@H]6C[C@@H](C(=O)O)C6(C)C)C(C)(C)[C@@H]5CC[C@@]4(C)[C@]3(C)CC[C@@]2([C@@H](O)CNCCN2CCS(=O)(=O)CC2)CC1=O	EC50	MT-2	92HT599	-	p24 / ELISA	-	<1 µM
O=C(NCCc1ccccc1)Nc1nc(-c2ccc(Br)cc2)cs1	inhibition	MT-4	-	10 µg/mL	cytopathic effect / XTT	-	0%
CC(C)C1=C2[C@H]3CC[C@@H]4[C@@]5(C)CC[C@H](OC(=O)[C@H]6C[C@@H](C(=O)O)C6(C)C)C(C)(C)[C@@H]5CC[C@@]4(C)[C@]3(C)CC[C@@]2([C@@H](O)CNC(=O)c2ccc(N3CCOCC3)cc2)CC1=O	EC50	MT-2	92HT599	-	p24 / ELISA	-	<1 µM
CCC(=O)c1ccc(F)c([C@@H]2C[C@@H]2NC(=O)Nc2ccc(C#N)cn2)c1O	fold resistance	TZM-bl	LAI	-	β-galactosidase / luminescence	NNRTI-resistant (RT V108I)	1.3
Cc1cc(S(N)(=O)=O)ccc1NC(=O)COc1ccc(Cl)cc1C(=O)c1cc(Cl)cc(C#N)c1	fold resistance	HeLa + HELA CD4+	HXB2	-	β-galactosidase	RT-V106A Y181C	~1
CC(C)C1=C2[C@H]3CC[C@@H]4[C@@]5(C)CC[C@H](OC(=O)[C@H]6C[C@@H](C(=O)O)C6(C)C)C(C)(C)[C@@H]5CC[C@@]4(C)[C@]3(C)CC[C@@]2(CCNC(=O)C2CCCC2)CC1=O	EC50	MT-2	92HT599	-	p24 / ELISA	-	<1 µM
Cc1ccc(C)n1-c1ccc(C(=O)O)c(O)c1	EC90	PBMC + MT-2	BCF02 R5 GROUP O	-	p24	-	8.94 µM
CC(C)C1=C2[C@H]3CC[C@@H]4[C@@]5(C)CC[C@H](OC(=O)[C@H]6C[C@@H](C(=O)O)C6(C)C)C(C)(C)[C@@H]5CC[C@@]4(C)[C@]3(C)CC[C@@]2(CCNCC(F)(CCCN)NC(=O)c2ccc(Cl)cc2)CC1=O	EC50	MT-2	92HT599	-	p24 / ELISA	-	<1 µM
COc1ccc(S(=O)(=O)N(CC2CCCC2)C[C@H](O)CN(CCc2ccccc2)C(=O)O[C@H]2CCOC2)cc1	EC90	CEM	IIIB	-	p24	-	1 µM
O=C(NCCc1ccccc1)Nc1ccn[nH]1	inhibition	MT-4	-	10 µg/mL	cytopathic effect / XTT	-	0%

Again, the opening 2 rows:

smiles | endpoint | cells | strain | dose | method | changes | value
O=C(NCc1ccc(F)cc1)c1nc2n(c(=O)c1O)C(=O)N(Cc1ccccc1)CC2 | EC95 | MT-4 | - | - | p24 | - | <50 µM
Nc1nc(=O)n([C@H]2C=C[C@@H](CO)O2)cc1F | EC90 | PBMC | XM-ABC-resistant | - | p24 | RT-K65R L74V M184V Y115F | 6.2 µM

ECn: concentration that inhibits the pathogen or its effect by n%. Percent inhibition refers to the dose given; in toxicity tests it is the harm to the cells. Rows are shuffled and stem from different studies. Fold resistance has wild type as its base.